{"source": "PubChem BioAssay AID492967", "about": "(ICCB-Longwood Screening Facility, Harvard Medical School, 2010)", "note": "The entries are a selection whose mix differs from that of the whole data set. Calls of active or inactive are those of the source. Rule as the data show it: active = z-score mostly below about -2.9 (no sharp cut-off); inactive = mostly above about -1.9."}
{"system": "CapD gamma-glutamyltranspeptidase (Bacillus anthracis Ames Ancestor)", "test": "Bacillus anthracis CapD inhibitors, primary screen, biochemical, fluorescence intensity (AID 492967)", "settings": "purified CapD enzyme, fluorescence intensity read-out; hits give low values"}
{"smiles": "CCc1nc2c(n1)c1c(non1O)c1c2no[n+]1[O-]", "z-score": "inactive: -3.63"}
{"smiles": "CP(=O)(Nc1ccc(Cl)cc1)Oc1ccc(F)cc1", "note": "(centres undefined)", "z-score": "inactive: -0.255"}
{"smiles": "CCOP(OCC)N1CCOCC1", "z-score": "inactive: -0.15"}
{"smiles": "O=CC1c2cc([N+](=O)[O-])cc([N+](=O)[O-])c2-c2c1cc([N+](=O)[O-])cc2[N+](=O)[O-]", "z-score": "inactive: -0.35"}
{"smiles": "Cc1[nH]c2c(N(C(=O)c3cc(Cl)nc(Cl)c3)C3CCN(Cc4ccccc4)CC3)cccc2c1C", "z-score": "inactive: -0.635"}
{"smiles": "CC(=O)OC=C1c2cc([N+](=O)[O-])cc([N+](=O)[O-])c2-c2c1cc([N+](=O)[O-])cc2[N+](=O)[O-]", "z-score": "inactive: -0.165"}
{"smiles": "CP(=O)(Nc1ccccn1)Oc1ccccc1", "note": "(centres undefined)", "z-score": "inactive: -0.015"}
{"smiles": "Nc1cc(N)c2nonc2c1[N+](=O)[O-]", "z-score": "inactive: -1.33"}
{"smiles": "CCOP(=Nc1nc2ccccc2n2nnnc12)(OCC)OCC", "z-score": "inactive: -0.44"}
{"smiles": "N#Cc1cc([N+](=O)[O-])cc2c1-c1c(cc([N+](=O)[O-])cc1[N+](=O)[O-])C2=O", "z-score": "inactive: -0.925"}
{"smiles": "CC(=O)N1CCc2ccc(N(C(=O)c3cccs3)C3CCN(Cc4ccccc4)CC3)cc21", "z-score": "inactive: 0.45"}
{"smiles": "CN(C)c1cc2c(c([N+](=O)[O-])c1)-c1c(cc([N+](=O)[O-])cc1[N+](=O)[O-])C2=O", "z-score": "inactive: 0.4"}
{"smiles": "COC(=O)N(c1ccccc1)P1(=S)OCC(C)O1", "note": "(centres undefined)", "z-score": "inactive: 0.03"}
{"smiles": "O=C(OC1/C(=C/c2ccccc2F)N2CCC1CC2)c1ccccc1", "note": "(centres undefined)", "z-score": "inactive: 0.18"}
{"smiles": "CN(C)C(=O)Oc1noc2ccccc12", "z-score": "inactive: -0.38"}
{"smiles": "Cc1[nH]c2c(N(C(=O)Nc3ccccc3)C3CCN(Cc4ccccc4)CC3)cccc2c1C", "z-score": "inactive: -0.295"}
{"smiles": "O=C(OC1CN2CCC1CC2)c1ccccc1", "note": "(centres undefined)", "z-score": "inactive: 0.31"}
{"smiles": "COc1cc2c(cc1NP(C)(=O)Oc1ccccc1)oc1ccccc12", "note": "(centres undefined)", "z-score": "inactive: -0.375"}
{"smiles": "O=P1(Nc2nc3ccc(Cl)cc3s2)COc2ccccc2O1", "note": "(centres undefined)", "z-score": "inactive: -1.17"}
{"smiles": "O=C(OCCN1CCN(CCOCc2ccccc2)CC1)C(O)(c1ccccc1)c1ccccc1", "z-score": "inactive: 0.415"}
{"smiles": "O=[N+]([O-])c1cc([N+](=O)[O-])c(Sc2nc3ccccc3s2)c([N+](=O)[O-])c1", "z-score": "inactive: -3.38"}
{"smiles": "CC(=O)OC1CN2CCC1C(c1ccccc1)C2", "note": "(centres undefined)", "z-score": "inactive: 0.7"}
{"smiles": "Cc1ccc(NP(=O)(/N=c2\\nc(-c3ccccc3)n(-c3ccccc3)s2)Nc2ccc(C)cc2)cc1", "z-score": "inactive: -0.425"}
{"smiles": "O=[N+]([O-])c1cc2c(c([N+](=O)[O-])c1)-c1c(cc([N+](=O)[O-])cc1[N+](=O)[O-])C2=NO", "z-score": "inactive: 0.2"}
{"smiles": "C/C1=C2N=C(/C=C3N=C(/C(C)=C4\\[N-][C@@](C)([C@@H]5N=C1[C@](C)(CCC(=O)NC[C@@H](C)OP(=O)([O-])O[C@H]1[C@@H](O)[C@@H](n6cnc7cc(C)c(C)cc76)O[C@@H]1CO)[C@H]5CC(N)=O)[C@@](C)(CC(N)=O)[C@@H]4CCC(N)=O)[C@@](C)(CC(N)=O)[C@@H]\\3CCC(N)=O)C(C)(C)[C@@H]/2CCC(N)=O.[C-]#N.[Co+3]", "z-score": "inactive: 1.47"}
{"smiles": "Cc1ccccc1NP(C)(=O)Nc1ccccc1C", "z-score": "inactive: -0.225"}
{"smiles": "CC(=O)N1CCc2cc(N(C(=O)c3cccs3)C3CCN(Cc4ccccc4)CC3)ccc21", "z-score": "inactive: 0.45"}
{"smiles": "Nc1nonc1OCc1nonc1COc1nonc1N", "z-score": "inactive: 0.06"}
{"smiles": "CC(=O)OC1(C#N)CN2CCC1CC2", "note": "(centres undefined)", "z-score": "inactive: 0.04"}
{"smiles": "C=CCN1CCN(CCOC(=O)C(O)(c2ccccc2)c2ccccc2)CC1", "z-score": "inactive: 0.165"}
{"smiles": "CCNC(=O)N(c1ccc2c(c1)N(C(C)=O)CC2)C1CCN(Cc2ccccc2)CC1", "z-score": "inactive: 0.13"}
{"smiles": "CCNC(=O)N(c1ccc2[nH]c(C(C)(C)CC)cc2c1)C1CCN(Cc2ccccc2)CC1", "z-score": "inactive: -0.335"}
{"smiles": "Cc1ccc(C(=O)OC2CN3CCC2CC3)cc1", "note": "(centres undefined)", "z-score": "inactive: -0.03"}
{"smiles": "CC1(C)COP(=S)(N(C2=NCCC2)c2ccccc2)OC1", "z-score": "inactive: -0.04"}
{"smiles": "O=C(OC1/C(=C/c2ccccc2F)N2CCC1CC2)c1ccc([N+](=O)[O-])cc1", "note": "(centres undefined)", "z-score": "inactive: -0.58"}
{"smiles": "Cc1cc(C)cc(OP(C)(=O)Nc2ccc(OC(C)C)cc2)c1", "note": "(centres undefined)", "z-score": "inactive: 0.01"}
{"smiles": "Nc1nonc1-c1no[n+]([O-])c1-c1nonc1N", "z-score": "inactive: -1.75"}
{"smiles": "O=P1(Nc2ccccn2)COc2ccccc2OC1", "z-score": "inactive: -0.035"}
{"smiles": "Cc1cccc(OCC(=O)OC2CN3CCC2CC3)c1", "note": "(centres undefined)", "z-score": "inactive: 22.7"}
{"smiles": "COc1cc(-n2cnnn2)ccc1-n1cnnn1", "z-score": "inactive: -0.005"}
{"smiles": "O=C(OC1CN2CCC1CC2)c1ccc(Cl)cc1", "note": "(centres undefined)", "z-score": "inactive: 0.225"}
{"smiles": "CC1(C)Nc2ccccc2OP1(=O)c1ccccc1", "note": "(centres undefined)", "z-score": "inactive: 0.09"}
{"smiles": "CCNC(=O)N(c1ccc2c(c1)CCN2S(C)(=O)=O)C1CCN(Cc2ccccc2)CC1", "z-score": "inactive: -0.785"}
{"smiles": "NC(=O)Nc1ccc([As](=O)(O)O)cc1", "z-score": "inactive: 0.53"}
{"smiles": "O=P1(Nc2nc3ccc(Cl)cc3s2)COc2ccccc2OC1", "z-score": "inactive: -0.075"}
{"smiles": "O=[N+]([O-])c1ccc(NN=C2c3cc([N+](=O)[O-])cc([N+](=O)[O-])c3-c3c2cc([N+](=O)[O-])cc3[N+](=O)[O-])cc1", "z-score": "inactive: -0.265"}
{"smiles": "CC1=Nc2ccc(C(F)(F)F)cc2C1(C)C", "z-score": "inactive: 3.88"}
{"smiles": "O=C(O)C1(O)c2ccccc2-c2ccccc21", "z-score": "inactive: 0.52"}
{"smiles": "Cc1cc(C)cc(OP(C)(=O)NCc2ccccc2)c1", "note": "(centres undefined)", "z-score": "inactive: -0.35"}
{"smiles": "Nc1nonc1OCCOc1nonc1N", "z-score": "inactive: -0.115"}
{"smiles": "CN(C)P1(=O)Nc2ccccc2S1", "note": "(centres undefined)", "z-score": "inactive: -1.6"}
{"smiles": "COP(=O)(OC)C(NC(=O)c1ccc(C)cc1)=C(Cl)Cl", "z-score": "inactive: 0.07"}
{"smiles": "O=C(OC1CN2CCC1CC2)C12CC3CC(CC(C3)C1)C2", "note": "(centres undefined)", "z-score": "inactive: 0.255"}
{"smiles": "CCn1cccc/c1=N\\P1(=S)OCCO1", "z-score": "inactive: 4.54"}
{"smiles": "CCCOC=C1c2cc([N+](=O)[O-])cc([N+](=O)[O-])c2-c2c1cc([N+](=O)[O-])cc2[N+](=O)[O-]", "z-score": "inactive: 5.78"}
{"smiles": "O=C(OC1/C(=C/c2ccccc2F)N2CCC1CC2)c1c(F)cccc1F", "note": "(centres undefined)", "z-score": "inactive: -0.35"}
{"smiles": "O=C(O)CCC(=O)N=S(c1ccccc1)c1ccccc1.O=[N+]([O-])c1cc([N+](=O)[O-])c(O)c([N+](=O)[O-])c1", "z-score": "inactive: -1.98"}
{"smiles": "Cc1nn2c(c1[N+](=O)[O-])n1nc(C)c([N+](=O)[O-])c1n1nc(C)c([N+](=O)[O-])c21", "z-score": "inactive: -1.44"}
{"smiles": "CP(=O)(Nc1ccc(Cl)cc1)Oc1ccccc1", "note": "(centres undefined)", "z-score": "inactive: -0.16"}
